Laboratory results: PubChem BioAssay AID1259414 (Drosophila RNAi Screening Center, 2018)

- Aim: 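Genome-wide screen for host control of endosymbiont load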 (primary screen)
- Cells: Drosophila JW18 cells infected with Wolbachia
- Reagent: long dsRNA against Drosophila genes, 0.25 µg dsRNA per well of a 384-well plate
- Time to read-out: 5 days
- Challenge: cells persistently infected with Wolbachia before knock-down; no added drug
- Read-out: 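Automated imaging of bacterial rRNA staining divided by host cell count, reported as plate-normalised robust z-score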
- Reading the numbers: Wolbachia per cell robust z: higher = more Wolbachia per host cell than the plate typical
- Rule for the call: 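Hit when robust z is 1.5 or more, or -1.5 or less, in at least two of three replicates; excludes dsRNAs with several or no targets, genes not expressed in JW18 and well A1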
The deposit covers about 24,000 reagents; below is an unselected part of those that have a named target and a result. Of all reagents, about 1,210 (5%) got an active call. 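Inactive calls also include excluded dsRNAs with several or no targets, genes unexpressed in JW18, and well A1, regardless of score.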 Names joined by + are all predicted targets of the reagent.

| gene | amplicon | Wolbachia per cell robust z, rep 1 | Wolbachia per cell robust z, rep 2 | Wolbachia per cell robust z, rep 3 | Outcome |
| --- | --- | --- | --- | --- | --- |
| east | DRSC18770 | 0.868 | 1.13 | -0.662 | inactive |
| east | DRSC23626 | 0.978 | -0.662 | 0.523 | inactive |
| CG34171 | DRSC38909 | -1.77 | -0.0249 | -0.439 | inactive |
| CG5569 | DRSC04514 | 0.785 | -0.518 | 0.668 | inactive |
| CG15337 | DRSC18020 | -4.41 | -0.952 | -1.48 | inactive |
| CG15337 | DRSC22778 | -1.52 | -3.53 | -3.31 | inactive |
| Vinc | DRSC18728 | 0.694 | 0.647 | 0.326 | inactive |
| uno | DRSC07244 | 0.808 | 1.47 | 0.783 | inactive |
| uno | DRSC28407 | -0.423 | -0.293 | 0.311 | inactive |
| CG4752 | DRSC04486 | 0.729 | -1.2 | 0.491 | inactive |
| CG4752 | DRSC27141 | 1.31 | 0.401 | 0.874 | inactive |
| FucTD | DRSC08634 | 0.0682 | -1.33 | -0.355 | inactive |
| CG42500 | DRSC14822 | 0.758 | -1.7 | -0.0258 | inactive |
| CG12744 | DRSC06164 | -9 | -0.698 | 0.445 | inactive |
| Fum2 | DRSC18345 | -1.74 | -0.363 | 0.0858 | inactive |
| Fum2 | DRSC25313 | -0.347 | 0.609 | 1.2 | inactive |
| CR41507 + CR41508 + CR41509 + 1 more | DRSC38658 | -0.751 | -1.03 | -0.159 | inactive |
| CG31848 | DRSC01309 | -3.42 | -1.86 | -2.3 | inactive |
| eIF4B | DRSC37929 | 0.18 | 0.515 | -1.53 | inactive |
| betaNACtes1 | DRSC19534 | -4.04 | -2.86 | -2.5 | inactive |
| betaNACtes1 | DRSC26176 | -1.44 | -1.03 | 0.45 | inactive |
| CR31953 + gkt | DRSC00709 | -6.1 | -5.1 | -0.78 | active |
| Agpat1 | DRSC19879 | 0.526 | 0.71 | 0.429 | inactive |
| Agpat1 | DRSC19880 | 0.926 | -4.53 | 0.459 | inactive |
| CG15594 | DRSC12280 | 0.323 | -1.13 | 0.42 | inactive |
| CG18302 | DRSC02663 | -4.77 | 0.143 | -1.6 | inactive |
| CG18302 | DRSC29318 | -0.433 | -7.03 | 1.36 | inactive |
| CG17272 | DRSC15211 | 0.321 | -1.88 | -0.187 | inactive |
| BubR1 | DRSC04838 | -2.98 | -1.11 | -1 | inactive |
| Daxx | DRSC03255 | -0.887 | 1.79 | -0.352 | inactive |
| Daxx | DRSC29680 | 0.678 | -1.34 | -0.322 | inactive |
| CG15696 | DRSC15118 | 0.163 | 0.984 | 0.294 | inactive |
| CG15696 | DRSC25170 | 0.373 | -0.831 | -0.323 | inactive |
| CG10638 | DRSC09762 | 0.0565 | -7.02 | -0.722 | inactive |
| CG10638 | DRSC29762 | -1.32 | -1.02 | 0.289 | inactive |
| Ip6k | DRSC04054 | 0.791 | 0.467 | -0.589 | inactive |
| Ip6k | DRSC24285 | 1.03 | 0.461 | -3.11 | inactive |
| Pi4KIIIalpha | DRSC18655 | 0.149 | 0.188 | -0.566 | inactive |
| Pi4KIIIalpha | DRSC41282 | 0.673 | 0.534 | -0.121 | inactive |
| mRpL27 | DRSC22568 | -0.293 | -0.925 | -0.155 | inactive |
| CR43381 + CR32821 + CR43379 + 1 more | DRSC22544 | 0.736 | 0.765 | 0.417 | inactive |
| Charon | DRSC00679 | 0.617 | -0.341 | 0.0345 | inactive |
| GatC + PolG2 | DRSC03312 | 1.46 | -0.76 | 0.034 | inactive |
| vir-1 | DRSC02501 | 0.783 | -0.811 | 0.383 | inactive |
| vir-1 | DRSC02863 | 1.22 | -6.97 | -5.25 | active |
| vir-1 | DRSC25208 | 0.309 | -0.406 | 0.71 | inactive |

Records above whose target name starts with V or v (4):
| gene | amplicon | Wolbachia per cell robust z, rep 1 | Wolbachia per cell robust z, rep 2 | Wolbachia per cell robust z, rep 3 | Outcome |
| --- | --- | --- | --- | --- | --- |
| Vinc | DRSC18728 | 0.694 | 0.647 | 0.326 | inactive |
| vir-1 | DRSC02501 | 0.783 | -0.811 | 0.383 | inactive |
| vir-1 | DRSC02863 | 1.22 | -6.97 | -5.25 | active |
| vir-1 | DRSC25208 | 0.309 | -0.406 | 0.71 | inactive |
